These results are taken from the supplement of paper PMC9931576.

Numbering of substitutions follows the chain as printed. Human monoclonal antibodies against the spike receptor-binding domain (heavy:light variable regions). IC50 against pseudoviruses bearing the spike of naturally observed variants; lower = stronger; >10 µg/ml means not reached at the top dose. No active / inactive call. The stated detection limit is 0.0005 µg/ml; values near or below 0.001 µg/ml lie at the floor of the assay.

To fix the notation:
B1: BD55-3485 (protein)
chain 1: QVQLQESGPGLVKPSETLSLTCTVSGGSISSYFWTWIRQSPGKGLEWIGNIYYSGETKYNPSLKSRVTITVDTSKDVFSLILTSMTAADTAVYYCARGGGRWQQSDYYYGMDFWGQGTTVTVSS
chain 2: DIQMTQSPSSLSASVGDRVTITCRASQSIGRYLNWYQQKPGKAPRLLMYEATSLQSGVPSRFSGSGFGADFTLTISSLQPEDFATYYCQQSYSPSYTFGQGTKLEIK
B2: BD55-3549 (protein)
chain 1: EVQLVESGGGLVQPGGSLRLSCAASGFTFSTYDMHWVRQTTGKGLEWLSTIGTSGDTYYADSVRGRFTISRENAKNSLHLQISSLGAGDTAVYYCARAEFSGYVLFFDHWGQGTLVTVSS
chain 2: DIQMTQSPSSLSASVGDRVTITCRASQSVGIYLNWYQQKPGKAPKLLIYAASSLQSGVPSRFSGSGSGTDFTLTIISLQPEDFATYYCQQSYTTFSLTFGGGTKVEIK
B3: BD55-4329 (protein)
chain 1: QVQLVESGGGVVQPGRSLRLSCAASGFTFRAFTTYWVRQAPGQGLEWVAVISSDGTAKFYADSVKGRFTISRDDSKNTLFLQMNSLRPEDTAVYYCARVTYAYGFGGEFLDYWGQGTLVTVSS
chain 2: B2 chain 2 with M4L, G30S, I31T, K42N, S53N, I76S, T85S, T93V, F95P, S96A
B4: BD55-3807 (protein)
chain 1: QVQLQESGPGLVKPSQTLSLTCTVSGGSISSGGYYWSWIRQHPGKGLEWIGYIYYTGSTYYNPSLKSRVTISVDTSKNQFSLKLNSVTAADTAVYYCARGKMYYDVLTGYYKGDWFDPWGLGTLVTVSS
chain 2: QSALTQPASVSGSPGQSITISCTGTSSDVFGYNYVSWYQQQPGKAPKLMIFDVSNRPSGVSNRFSGSKSGNTASLTISGLQAEDEADYYCSSYTNSSPLFGGGTKLTVL
B5: BD55-3670 (protein)
chain 1: QLQLQESGPGLVKPSETLSLICSVSGGSISSRSYRWGWIRQSPGKGLEWIGSISYSGNIDRNPSLKSRVTISVDSSKNKFSLKLSSVTATDTAVYYCARHSGYDFYFDSWGQGTLVTVSS
chain 2: DIHMTQSPSTLSASVGDRVTITCRASQSISRWLAWYQQRPGKAPNLLIYMASILESGVPSRFSGSGSGTEFTLTISSLQPDDFATYYCQQYNSDSVTFGPGTKVDIK
B6: BD55-3773 (protein)
chain 1: QVQLVQSGAEVKKPGASVKVSCKASGYIFTNYGISWVRQAPGQGLEWMGWISAYKSNTEYAQKFQGRVTMTIDKSTSIAYMELRSLRSDDTAVYYCARDRHYYGSGSFCDYWGQGTLVAVSS
chain 2: DVVMTQSPLSLPVTLGQPASISCRSSQSLVYSDGNTFLNWFQQRPGQSPRRLIYEVSHRDSGVPERFSGSGSATDFTLKISRVEAEDVGVYYCMQGTHWPPTFGQGTKVEIK
B7: BD55-3602 (protein)
chain 1: QVQLVESGGGVVQPGSSLRLSCAASGFTFSNYDIHWVRQAPGKGLEWVAVISHDGSSKFYGDSVKGRVAISRDSSKTTLQLSSLRAEDTAVYFCAKEQIYDTLTGLNYFDNWGQGTLVTVSS
chain 2: DIQMTQSPSSLSASVGDRVTITCRASQSISSHLNWYQQNPGKAPKPLIYAASNLHSGVPSRFSGSGVGTHFTLTISSLQPEDFATYYCQQSYNTPQITFGPGTKVDI
B8: BD55-3433 (protein)
chain 1: QVQLVQSDPELKEPGASVRISCKASGYIFTTYAMNWVRQAPGQGLEWMGWINPNTGTPTYAQGFTGRFVFSLDTPVSTAYLQISSLKAQDTAIYYCARDPGGSATSGFDSWGQGTLVTVSS
chain 2: DIVMTQSPATLSVSPGARATLSCRASHSVSSHLAWYQQRPGQAPRLLINGASTRATGIPDRFSGSGSGTEFTLTISSLQSEDFAVYYCHQYSYWPITFGQGTRLEIK
B9: BD55-4328 (protein)
chain 1: QVQLVQSGAEVKKPGSSVKVSCTASGGTFSSYFVTWVRQAPGQGLEWMGRISPLLGESKQAQRLQGRATITADKSTGTVYMELNSLRSEDTAVYYCASGRSLHDVLTGRYNYAMDVWGPGTAVTVSS
chain 2: NFMLTQPHSVSESPGKTVTISCTRSSGSIASNYVQWYQQRPGSAPTTVIYEDNERPSGVPDRFSGSIDSSSNSASLTISGLMTEDEADYYCQSYDGSNDGVFGGGTKLTVL
B10: BD55-4342 (protein)
chain 1: EVQLVESGGSLVKPGGSLRLSCAASGFDFSNYAMDWVRQAPGKGLEWVSSISNSGSLMFYADSVKGRFTISRDNAKNSLYLQLNSLRAEDTAIYFCAREADSNYQVIFDYWGQGSLVTVSS
chain 2: DIQMTQSPSSLSASVGDRVTITCRASQTINTYLNWYQQKPGKAPRLLIYSVSTLQSGVPSRFSGSGSGTDFTLTISSLQPEDFATYFCQQSYNTPQVTFGQGTRLEIK
B11: BD55-3417 (protein)
chain 1: QVQVVQSGAEVKKPGDSVRVSCKTSGYTFTSHDINWVRQAPGQGLEWVGWISPYNGNTNHAQKFQGRVTMATDTSTSTAYMELRSLRSDDTAVYYCARAAEGVYWGWYFDLWGRGTPVTVSS
chain 2: EIVMTQSPATLSVSPGDRATLSCRASQSVSSDLAWYQQKPGQAPRLLIYGASTRASGVPARFSGSGSGTEFTLTISSLQSEDFAVYYCQQYNNWPPLYTFGQGTKLEIK
B12: BD55-4357 (protein)
chain 1: QVQLVESGGGVVQPGRSLRLSCTASGFTLSNYAMHWVRQAPGKGLEWVAAIPNDGSNKFYAESVKGRFTISRDNSKNTVFLQMNSLRGEDTAVYYCARPHDTLTGYYFAYFDSWGQGTLVTVSS
chain 2: ELVMTQSPGTLSVSPGERATLACRASRSVSSSLAWYQQKPGQAPRLLIYDASTRATGIPARFSGSGSGTEFTLTISSLQSEDFAVYYCQQYNNWPPGPFGQGTKVEIK

The target of one assay is SARS-CoV-2 Omicron BA.1 spike pseudovirus. The experiment in a line: pseudovirus neutralization IC50; higher = weaker neutralization. The protocol:
(§1)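 Single-round VSV luciferase pseudovirus mixed with antibody dilutions for 1 h and put on Huh-7 cells for about a day; IC50 from the dose curve.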
Take B1: the “pseudovirus neutralization IC50” value was 4.3 µg/mL.

On to B2, for which the “pseudovirus neutralization IC50” value is over 10 µg/mL.

On to B3, for which the “pseudovirus neutralization IC50” value is over 10 µg/mL.

B4: the “pseudovirus neutralization IC50” value was over 10 µg/mL.

Turning to B5, the “pseudovirus neutralization IC50” value is over 10 µg/mL.

B6: the “pseudovirus neutralization IC50” value turned out to be 2.89 µg/mL.

Regarding B7, the “pseudovirus neutralization IC50” value was over 10 µg/mL.

For the molecule B8, the “pseudovirus neutralization IC50” value came to 4.09 µg/mL.

On to B9, for which the “pseudovirus neutralization IC50” value was over 10 µg/mL.

Regarding B10, the “pseudovirus neutralization IC50” value turned out to be 3.52 µg/mL.

For B11, the “pseudovirus neutralization IC50” value is over 10 µg/mL.

For B12, the “pseudovirus neutralization IC50” value was over 10 µg/mL.

The target of another assay is SARS-CoV-2 Omicron BA.2 spike pseudovirus. Described as above. The protocol:
as §1
As to B1, the “pseudovirus neutralization IC50” value amounted to 5.55 µg/mL.

On to B2, for which the “pseudovirus neutralization IC50” value is over 10 µg/mL.

For B3, the “pseudovirus neutralization IC50” value is over 10 µg/mL.

As to B4, the “pseudovirus neutralization IC50” value was over 10 µg/mL.

For B5, the “pseudovirus neutralization IC50” value is over 10 µg/mL.

For B6, the “pseudovirus neutralization IC50” value stood at 4.29 µg/mL.

Consider B7, for which the “pseudovirus neutralization IC50” value was over 10 µg/mL.

As for B8, the “pseudovirus neutralization IC50” value stood at 3.22 µg/mL.

Take B9: the “pseudovirus neutralization IC50” value is over 10 µg/mL.

B10: the “pseudovirus neutralization IC50” value is 6.47 µg/mL.

Take B11: the “pseudovirus neutralization IC50” value was over 10 µg/mL.

B12: the “pseudovirus neutralization IC50” value was over 10 µg/mL.

In a further assay the target is SARS-CoV-2 Omicron BA.2.75 spike pseudovirus. The description is as above. The protocol: as §1
Turning to B1, the “pseudovirus neutralization IC50” value worked out at 5.65 µg/mL.

As for B2, the “pseudovirus neutralization IC50” value was over 10 µg/mL.

With B3, the “pseudovirus neutralization IC50” value is over 10 µg/mL.

Consider B4, for which the “pseudovirus neutralization IC50” value is over 10 µg/mL.

Regarding B5, the “pseudovirus neutralization IC50” value is over 10 µg/mL.

On to B6, for which the “pseudovirus neutralization IC50” value came to 3.35 µg/mL.

Take B7: the “pseudovirus neutralization IC50” value was over 10 µg/mL.

Consider B8, for which the “pseudovirus neutralization IC50” value was over 10 µg/mL.

As for B9, the “pseudovirus neutralization IC50” value is over 10 µg/mL.

Take B10: the “pseudovirus neutralization IC50” value turned out to be 4.3 µg/mL.

Turning to B11, the “pseudovirus neutralization IC50” value is over 10 µg/mL.

For the molecule B12, the “pseudovirus neutralization IC50” value is over 10 µg/mL.

In a further assay the target is SARS-CoV-2 Omicron BA.5 spike pseudovirus. The description is as above. The protocol:
as §1
With B1, the “pseudovirus neutralization IC50” value came out at 5.3 µg/mL.

With B2, the “pseudovirus neutralization IC50” value was over 10 µg/mL.

As for B3, the “pseudovirus neutralization IC50” value is over 10 µg/mL.

With B4, the “pseudovirus neutralization IC50” value is over 10 µg/mL.

As to B5, the “pseudovirus neutralization IC50” value was over 10 µg/mL.

B6: the “pseudovirus neutralization IC50” value was 3.51 µg/mL.

With B7, the “pseudovirus neutralization IC50” value was over 10 µg/mL.

In the case of B8, the “pseudovirus neutralization IC50” value worked out at 4.27 µg/mL.

With B9, the “pseudovirus neutralization IC50” value is over 10 µg/mL.

For B10, the “pseudovirus neutralization IC50” value turned out to be 1.69 µg/mL.

On to B11, for which the “pseudovirus neutralization IC50” value is over 10 µg/mL.

Consider B12, for which the “pseudovirus neutralization IC50” value is over 10 µg/mL.

The next assay addresses SARS-CoV-2 Omicron BQ.1.1 spike pseudovirus. Described as above. The protocol:
as §1
Take B1: the “pseudovirus neutralization IC50” value turned out to be 4.81 µg/mL.

For B2, the “pseudovirus neutralization IC50” value was over 10 µg/mL.

With B3, the “pseudovirus neutralization IC50” value is over 10 µg/mL.

For the molecule B4, the “pseudovirus neutralization IC50” value was over 10 µg/mL.

Turning to B5, the “pseudovirus neutralization IC50” value was over 10 µg/mL.

On to B6, for which the “pseudovirus neutralization IC50” value was over 10 µg/mL.

With B7, the “pseudovirus neutralization IC50” value is over 10 µg/mL.

For B8, the “pseudovirus neutralization IC50” value is over 10 µg/mL.

Consider B9, for which the “pseudovirus neutralization IC50” value is over 10 µg/mL.

On to B10, for which the “pseudovirus neutralization IC50” value came to 2.55 µg/mL.

For B11, the “pseudovirus neutralization IC50” value is over 10 µg/mL.

As for B12, the “pseudovirus neutralization IC50” value was over 10 µg/mL.

A further assay concerns the target SARS-CoV-2 Omicron XBB spike pseudovirus. Described as above. The protocol: as §1
As to B1, the “pseudovirus neutralization IC50” value worked out at 6.07 µg/mL.

B2: the “pseudovirus neutralization IC50” value was over 10 µg/mL.

As to B3, the “pseudovirus neutralization IC50” value was over 10 µg/mL.

With B4, the “pseudovirus neutralization IC50” value was over 10 µg/mL.

For the molecule B5, the “pseudovirus neutralization IC50” value is over 10 µg/mL.

B6: the “pseudovirus neutralization IC50” value was over 10 µg/mL.

As for B7, the “pseudovirus neutralization IC50” value is over 10 µg/mL.

For the molecule B8, the “pseudovirus neutralization IC50” value is over 10 µg/mL.

As for B9, the “pseudovirus neutralization IC50” value was over 10 µg/mL.

B10: the “pseudovirus neutralization IC50” value turned out to be 1.96 µg/mL.

Regarding B11, the “pseudovirus neutralization IC50” value is over 10 µg/mL.

Take B12: the “pseudovirus neutralization IC50” value was over 10 µg/mL.

The next assay deals with SARS-CoV-2 early D614G spike pseudovirus. The assay is described as above. The protocol:
as §1
Regarding B1, the “pseudovirus neutralization IC50” value turned out to be 6.36 µg/mL.

In the case of B2, the “pseudovirus neutralization IC50” value was over 10 µg/mL.

Regarding B3, the “pseudovirus neutralization IC50” value was over 10 µg/mL.

B4: the “pseudovirus neutralization IC50” value is over 10 µg/mL.

On to B5, for which the “pseudovirus neutralization IC50” value is over 10 µg/mL.

Turning to B6, the “pseudovirus neutralization IC50” value turned out to be 0.516 µg/mL.

As to B7, the “pseudovirus neutralization IC50” value was 5.23 µg/mL.

For the molecule B8, the “pseudovirus neutralization IC50” value came to 0.002 µg/mL.

In the case of B9, the “pseudovirus neutralization IC50” value was found to be 0.938 µg/mL.

In the case of B10, the “pseudovirus neutralization IC50” value was 1.33 µg/mL.

Regarding B11, the “pseudovirus neutralization IC50” value was over 10 µg/mL.

For B12, the “pseudovirus neutralization IC50” value was 5.61 µg/mL.
